Reference: publication PMC7954794, “Protein context shapes the specificity of SH3 domain-mediated interactions in vivo” (Nature Communications, 2021)
The amount applied is not stated for every result.

B1: YAR042W (protein, UniProt P35845 1-1188, looked up)
Oxysterol-binding protein …: MEQPDLSSVAISKPLLKLKLLDALRQGSFPNLQDLLKKQFQPLDDPNVQQVLHLMLHYAVQVAPMAVIKEIVHHWVSTTNTTFLNIHLDLNERDSNGNTPLHIAAYQSRGDIVAFLLDQPTINDCVLNNSHLQAIEMCKNLNIAQMMQVKRSTYVAETAQEFRTAFNNRDFGHLESILSSPRNAELLDINGMDPETGDTVLHEFVKKRDVIMCRWLLEHGADPFKRDRKGKLPIELVRKVNENDTATNTKIAIDIELKKLLERATREQSVIDVTNNNLHEAPTYKGYLKKWTNFAQGYKLRWFILSSDGKLSYYIDQADTKNACRGSLNMSSCSLHLDSSEKLKFEIIGGNNGVIRWHLKGNHPIETNRWVWAIQGAIRYAKDREILLHNGPYSPSLALSHGLSSKVSNKENLHATSKRLTKSPHLSKSTLTQNDHDNDDDSTNNNNNKSNNDYDDNNNNNNNDDDDYDDDDESRPLIEPLPLISSRSQSLSEITPGPHSRKSTVSSTRAADIPSDDEGYSEDDSDDDGNSSYTMENGGENDGDEDLNAIYGPYIQKLHMLQRSISIELASLNELLQDKQQHDEYWNTVNTSIETVSEFFDKLNRLTSQREKRMIAQMTKQRDVNNVWIQSVKDLEMELVDKDEKLVALDKERKNLKKMLQKKLNNQPQVETEANEESDDANSMIKGSQESTNTLEEIVKFIEATKESDEDSDADEFFDAEEAASDKKANDSEDLTTNKETPANAKPQEEAPEDESLIVISSPQVEKKNQLLKEGSFVGYEDPVRTKLALDEDNRPKIGLWSVLKSMVGQDLTKLTLPVSFNEPTSLLQRVSEDIEYSHILDQAATFEDSSLRMLYVAAFTASMYASTTNRVSKPFNPLLGETFEYARTDGQYRFFTEQVSHHPPISATWTESPKWDFYGECNVDSSFNGRTFAVQHLGLWYITIRPDHNISVPEETYSWKKPNNTVIGILMGKPQVDNSGDVKVTNHTTGDYCMLHYKAHGWTSAGAYEVRGEVFNKDDKKLWVLGGHWNDSIYGKKVTARGGELTLDRIKTANSATGGPKLDGSKFLIWKANERPSVPFNLTSFALTLNALPPHLIPYLAPTDSRLRPDQRAMENGEYDKAAAEKHRVEVKQRAAKKEREQKGEEYRPKWFVQEEHPVTKSLYWKFNGEYWNKRKNHDFKDCADIF
B2: YDL160C (protein, UniProt P39517 1-506, looked up)
ATP-dependent RNA helicase …: MGSINNNFNTNNNSNTDLDRDWKTALNIPKKDTRPQTDDVLNTKGNTFEDFYLKRELLMGIFEAGFEKPSPIQEEAIPVAITGRDILARAKNGTGKTAAFVIPTLEKVKPKLNKIQALIMVPTRELALQTSQVVRTLGKHCGISCMVTTGGTNLRDDILRLNETVHILVGTPGRVLDLASRKVADLSDCSLFIMDEADKMLSRDFKTIIEQILSFLPPTHQSLLFSATFPLTVKEFMVKHLHKPYEINLMEELTLKGITQYYAFVEERQKLHCLNTLFSKLQINQAIIFCNSTNRVELLAKKITDLGYSCYYSHARMKQQERNKVFHEFRQGKVRTLVCSDLLTRGIDIQAVNVVINFDFPKTAETYLHRIGRSGRFGHLGLAINLINWNDRFNLYKIEQELGTEIAAIPATIDKSLYVAENDETVPVPFPIEQQSYHQQAIPQQQLPSQQQFAIPPQQHHPQFMVPPSHQQQQAYPPPQMPSQQGYPPQQEHFMAMPPGQSQPQY
B3: YGR178C (protein, UniProt P53297 1-722, looked up)
PAB1-binding protein 1: MKGNFRKRDSSTNSRKGGNSDSNYTNGGVPNQNNSSMFYENPEITRNFDDRQDYLLANSIGSDVTVTVTSGVKYTGLLVSCNLESTNGIDVVLRFPRVADSGVSDSVDDLAKTLGETLLIHGEDVAELELKNIDLSLDEKWENSKAQETTPARTNIEKERVNGESNEVTKFRTDVDISGSGREIKERKLEKWTPEEGAEHFDINKGKALEDDSASWDQFAVNEKKFGVKSTFDEHLYTTKINKDDPNYSKRLQEAERIAKEIESQGTSGNIHIAEDRGIIIDDSGLDEEDLYSGVDRRGDELLAALKSNSKPNSNKGNRYVPPTLRQQPHHMDPAIISSSNSNKNENAVSTDTSTPAAAGAPEGKPPQKTSKNKKSLSSKEAQIEELKKFSEKFKVPYDIPKDMLEVLKRSSSTLKSNSSLPPKPISKTPSAKTVSPTTQISAGKSESRRSGSNISQGQSSTGHTTRSSTSLRRRNHGSFFGAKNPHTNDAKRVLFGKSFNMFIKSKEAHDEKKKGDDASENMEPFFIEKPYFTAPTWLNTIEESYKTFFPDEDTAIQEAQTRFQQRQLNSMGNAVPGMNPAMGMNMGGMMGFPMGGPSASPNPMMNGFAAGSMGMYMPFQPQPMFYHPSMPQMMPVMGSNGAEEGGGNISPHVPAGFMAAGPGAPMGAFGYPGGIPFQGMMGSGPSGMPANGSAMHSHGHSRNYHQTSHHGHHNSSTSGHK
B4: YJL151C (protein, UniProt P14359 1-133, looked up)
Protein SNA3: MDRDHINDHDHRMSYSINKDDLLLMVLAVFIPPVAVWKRKGMFNRDTLLNLLLFLLLFFPAIIHACYVVYETSSERSYDLSRRHATAPAVDRDLEAHPAEESQAQPPAYDEDDEAGADVPLMDNKQQLSSGRT
B5: YLR258W (protein, UniProt P27472 1-705, looked up)
Glycogen [starch] synthase …: MSRDLQNHLLFETATEVANRVGGIYSVLKSKAPITVAQYKDHYHLIGPLNKATYQNEVDILDWKKPEAFSDEMRPVQHALQTMESRGVHFVYGRWLIEGAPKVILFDLDSVRGYSNEWKGDLWSLVGIPSPENDFETNDAILLGYTVAWFLGEVAHLDSQHAIVAHFHEWLAGVALPLCRKRRIDVVTIFTTHATLLGRYLCASGSFDFYNCLESVDVDHEAGRFGIYHRYCIERAAAHSADVFTTVSQITAFEAEHLLKRKPDGILPNGLNVIKFQAFHEFQNLHALKKEKINDFVRGHFHGCFDFDLDNTLYFFIAGRYEYKNKGADMFIEALARLNYRLKVSGSKKTVVAFIVMPAKNNSFTVEALKGQAEVRALENTVHEVTTSIGKRIFDHAIRYPHNGLTTELPTDLGELLKSSDKVMLKRRILALRRPEGQLPPIVTHNMVDDANDLILNKIRQVQLFNSPSDRVKMIFHPEFLNANNPILGLDYDEFVRGCHLGVFPSYYEPWGYTPAECTVMGVPSITTNVSGFGAYMEDLIETNQAKDYGIYIVDRRFKAPDESVEQLVDYMEEFVKKTRRQRINQRNRTERLSDLLDWKRMGLEYVKARQLALRRGYPDQFRELVGEELNDSNMDALAGGKKLKVARPLSVPGSPRDLRSNSTVYMTPGDLGTLQEVNNADDYFSLGVNPAADDDDDGPYADDS
B6: YMR080C (protein, UniProt P30771 1-971, looked up)
ATP-dependent helicase NAM7: MVGSGSHTPYDISNSPSDVNVQPATQLNSTLVEDDDVDNQLFEEAQVTETGFRSPSASDNSCAYCGIDSAKCVIKCNSCKKWFCNTKNGTSSSHIVNHLVLSHHNVVSLHPDSDLGDTVLECYNCGRKNVFLLGFVSAKSEAVVVLLCRIPCAQTKNANWDTDQWQPLIEDRQLLSWVAEQPTEEEKLKARLITPSQISKLEAKWRSNKDATINDIDAPEEQEAIPPLLLRYQDAYEYQRSYGPLIKLEADYDKQLKESQALEHISVSWSLALNNRHLASFTLSTFESNELKVAIGDEMILWYSGMQHPDWEGRGYIVRLPNSFQDTFTLELKPSKTPPPTHLTTGFTAEFIWKGTSYDRMQDALKKFAIDKKSISGYLYYKILGHQVVDISFDVPLPKEFSIPNFAQLNSSQSNAVSHVLQRPLSLIQGPPGTGKTVTSATIVYHLSKIHKDRILVCAPSNVAVDHLAAKLRDLGLKVVRLTAKSREDVESSVSNLALHNLVGRGAKGELKNLLKLKDEVGELSASDTKRFVKLVRKTEAEILNKADVVCCTCVGAGDKRLDTKFRTVLIDESTQASEPECLIPIVKGAKQVILVGDHQQLGPVILERKAADAGLKQSLFERLISLGHVPIRLEVQYRMNPYLSEFPSNMFYEGSLQNGVTIEQRTVPNSKFPWPIRGIPMMFWANYGREEISANGTSFLNRIEAMNCERIITKLFRDGVKPEQIGVITPYEGQRAYILQYMQMNGSLDKDLYIKVEVASVDAFQGREKDYIILSCVRANEQQAIGFLRDPRRLNVGLTRAKYGLVILGNPRSLARNTLWNHLLIHFREKGCLVEGTLDNLQLCTVQLVRPQPRKTERPMNAQFNVESEMGDFPKFQDFDAQSMVSFSGQIGDFGNAFVDNTELSSYINNEYWNFENFKSAFSQKQNRNEIDDRNLYQEEASHLNSNFARELQREEQKHELSKDFSNLGI

What follows are molecules tested on ABP1 (assay: DHFR-PCA on solid medium, bait ABP1 (Fig. 1B)). Conditions: bait ABP1, label = prey.
Format: cell-based, Saccharomyces cerevisiae
Design: key: 0: SH3-independent; 1: SH3-dependent PPIs; 2: SH3-inhibited PPIs
Excerpt: Supplement 41467_2021_21873_MOESM8_ESM.xlsx, sheet "Fig1B" | column: medsize; medrep; Ratio; Score

Score, 2:
B1
B2
B3
B4
B5
B6
